# Reference: paper PMC3458870 (PLoS ONE, 2012)
# Test system: C[C@H](O)[C@H](O)[C@H]1CNc2nc(N)[nH]c(=O)c2N1
# Assay: purified protein
# Conditions: pH 7.0; 37.0 °C; varied: cofactor
substance,measurement,value
lpPAH (phenylalanine hydroxylase from Legionella pneumophila; lpPAH-(His)6) (Legionella pneumophila subsp. pneumophila str. Philadelphia 1),Km,125 ± 25 µM
